Pooled drug test results. Numbers come from NIAID ChemDB, via PubChem.

Common to all: growth or infection tests; species: Staphylococcus aureus

Lines come from different laboratories, so protocols vary. Two numbers with a dash give a range or band. A number after MIC or MFC names an inhibition level or a share of isolates.

smiles | strain or isolate | read-out | result
O=C(CO)N1CC=C(c2c(F)cc(N3C[C@H](COc4ccon4)OC3=O)cc2F)CC1 | 004 (methicillin quinolone-resistant) | MIC | 0.5 µg/mL
CCCCC(=S)NC[C@H]1CN(c2ccc3c(c2)-n2cccc2COC3)C(=O)O1 | ATCC 33591 (MRSA) | MIC | 16 µg/mL
CC(=O)NC[C@H]1CN(c2ccc(-c3cccs3)c(F)c2)C(=O)O1 | UC9213 (methicillin-susceptible) | MIC | 0.5 µg/mL
CCCCCCCCCCCC[N+](C)(C)CSCCCC | ATCC33592 | MIC | 14.2 µM
CCC(=O)N=C1[C@H](C)C[C@@]2(C)OC/C(=C/C=C/c3ccccc3)COC([C@H]1C)[C@](C)(O)[C@@H](CC)OC(=O)[C@H](C)C(=O)[C@H](C)[C@H]2O[C@@H]1O[C@H](C)C[C@H](N(C)C)[C@H]1O | 29213 (erythromycin-susceptible) | MIC | 0.5 µg/mL
Cc1c(NCCCO)c(F)cc2c(=O)c(C(=O)O)cn(-c3cc(N)c(F)cc3F)c12 | 27 isolates (methicillin-resistant) | MIC90 | 0.015 µg/mL
O=C(NC[C@H]1CN(c2ccc3c(c2)-n2cccc2COC3)C(=O)O1)C(Cl)Cl | ATCC 49951 (SMITH) | MIC | 4 µg/mL
CC(=O)NC[C@H]1CN(c2ccc(-c3nsc(C(N)=O)n3)c(F)c2)C(=O)O1 | UC6685 (methicillin-resistant) | MIC | 8 µg/mL
NCCNc1cc2c(cc1F)c(=O)c(C(=O)O)cn2C1CC1 | ATCC 5278 (methicillin-resistant) | MIC | 25 µg/mL
CCCC[C@H](CC(=O)NO)C(=O)N[C@@H](CC(C)C)C(=O)Nc1ccc2ccccc2c1 | 3 strains | MIC | 1–2 µg/mL
O=C(O)c1cn(C2CC2)c2cc(NCCCCCO)c(F)cc2c1=O | ATCC 5278 (methicillin-resistant) | MIC | 25 µg/mL
Nc1cn(-c2ccc(N3C[C@H](COc4ccccn4)OC3=O)cc2F)cn1 | 078 (oxford) | MIC | 2 µg/mL
CC(C)CC(=O)NC[C@H]1CN(c2ccc3c(c2)-n2cccc2COC3)C(=O)O1 | ATCC 49951 (SMITH) | MIC | 16 µg/mL
CNC(=O)CC1NC(=O)c2csc(n2)-c2ccc(-c3nc(C(=O)NCCC(=O)OC(C)(C)C)cs3)nc2-c2csc(n2)-c2csc(n2)C(C(O)c2ccccc2)NC(=O)CNC(=O)c2nc(sc2CSSC(C)=O)C(C(C)C)NC(=O)c2nc1sc2C | ATCC 33591 (methicillin-resistant) | MIC | 1 µg/mL
CC1=NN=C(OC[C@H]2CN(c3ccc(C4=CCOCC4)c(F)c3)C(=O)O2)C1 | 122 (novobiocin-resistant) | MIC | 8 µg/mL
CNC(=O)CC1NC(=O)c2csc(n2)-c2ccc(-c3nc(C(=O)NCCC(=O)OC(C)(C)C)cs3)nc2-c2csc(n2)-c2csc(n2)C(C(O)c2ccccc2)NC(=O)CNC(=O)c2nc(sc2CSSC(=S)c2cnc[nH]2)C(C(C)C)NC(=O)c2nc1sc2C | ATCC 33591 (methicillin-resistant) | MIC | 4 µg/mL
O=C(O)NC[C@H]1CC(c2cc(F)c(N3CCN(C(=O)CO)CC3)c(F)c2)=NO1 | UC9218 | MIC | 1 µg/mL
COC(=O)n1ccc(-c2ccc(N3C[C@H](CNC(C)=O)OC3=O)cc2F)n1 | UC9213 (methicillin-susceptible) | MIC | 8 µg/mL
O=C(O)c1cn(C2CC2)c2cc(NCCN3CCCC3)c(F)cc2c1=O | ATCC 6538P | MIC | 1.56 µg/mL
CC[C@H]1OC(=O)[C@H](C)C(=O)[C@H](C)[C@@H](O[C@@H]2O[C@H](C)C[C@H](N(C)C)[C@H]2O)[C@@]2(C)C[C@@H](C)C(=NC(C)=O)[C@H](C)C(OC/C(=C\C#Cc3ccccc3)CO2)[C@]1(C)O | 29213 (erythromycin-susceptible) | MIC | 0.25 µg/mL
CC(=O)NC[C@H]1CN(c2ccc(-c3nsc(C#N)n3)c(F)c2)C(=O)O1 | UC6685 (methicillin-resistant) | MIC | 4 µg/mL
CC[C@H]1OC(=O)[C@H](C)C(=O)[C@H](C)[C@@H](O[C@@H]2O[C@H](C)C[C@H](N(C)C)[C@H]2O)[C@@]2(C)C[C@@H](C)/C(=N\C(=O)OC)[C@H](C)C(OC/C(=C\C=C\c3ccccc3)CO2)[C@]1(C)O | 27660 (erythromycin-resistant) | MIC | 0.5 µg/mL
O=C1O[C@@H](COc2ccncn2)CN1c1ccc(C2=CCOCC2)c(F)c1 | 004 (methicillin quinolone-resistant) | MIC | 1 µg/mL
CC[C@H]1OC(=O)[C@H](C)C(=O)[C@H](C)[C@@H](O[C@@H]2O[C@H](C)C[C@H](N(C)C)[C@H]2O)[C@@]2(C)C[C@@H](C)C(=NC(C)=O)[C@H](C)[C@@H](OC/C(=N\OCc3ccc(-n4cccn4)nc3)CO2)[C@]1(C)O | 25 strains | MIC50 | 0.125 µg/mL
O=C(CBr)NC[C@H]1CN(c2ccc3c(c2)-n2cccc2COC3)C(=O)O1 | ATCC 33591 (MRSA) | MIC | 4 µg/mL
CC(=O)NC[C@H]1CN(c2ccc(-c3csc(C)c3)c(F)c2)C(=O)O1 | UC9213 (methicillin-susceptible) | MIC | 2 µg/mL
CNC(=O)CC1NC(=O)c2csc(n2)-c2ccc(-c3nc(COC(=O)NCCC(=O)O)cs3)nc2-c2csc(n2)-c2csc(n2)C(C(O)c2ccccc2)NC(=O)CNC(=O)c2nc(sc2CSc2ncccn2)C(C(C)C)NC(=O)c2nc1sc2C | ATCC 33591 (methicillin-resistant) | MIC | 0.25 µg/mL
CC(=O)NC[C@H]1CN(c2ccc(-c3cnn(Cc4ccccc4)c3)c(F)c2)C(=O)O1 | UC6685 (methicillin-resistant) | MIC | 8 µg/mL
CC[C@H]1OC(=O)[C@H](C)C(=O)[C@H](C)[C@@H](O[C@@H]2O[C@H](C)C[C@H](N(C)C)[C@H]2O)[C@@]2(C)C[C@@H](C)C(=O)[C@H](C)C(OC/C=C/CO2)[C@]1(C)O | 33591 (erythromycin methicillin-resistant) | MIC | >64 µg/mL
CCCCCCCCCCSC[N+](C)(C)CCCCCCCC | ATCC33592 | MIC | 13.2 µM
O=C1O[C@@H](COc2ccon2)CN1c1ccc(N2CC(O)C2)c(F)c1 | 078 (oxford) | MIC | 16 µg/mL
CC[C@H]1OC(=O)[C@H](C)C(=O)[C@H](C)[C@@H](O[C@@H]2O[C@H](C)C[C@H](N(C)C)[C@H]2O)[C@@]2(C)C[C@@H](C)C(=NC(C)=O)[C@H](C)C(OC/C(=C\C=C\c3ccccc3)CO2)[C@]1(C)O | 27660 (erythromycin-resistant) | MIC | 0.5 µg/mL
COC(=O)N1CC=C(c2ccc(C3=NO[C@@H](CNC(=O)O)C3)cc2)CC1 | UC9213 | MIC | 2 µg/mL
CC(C)(Br)C(=O)NC[C@H]1CN(c2ccc3c(c2)-n2cccc2COC3)C(=O)O1 | ATCC 29213 (MSSA) | MIC | 32 µg/mL
CCCCN(CCCC)CCNc1cc2c(cc1F)c(=O)c(C(=O)O)cn2C1CC1 | ATCC 5278 (methicillin-resistant) | MIC | >100 µg/mL
Cc1cn(-c2ccc(N3C[C@H](CSC4C=NN=N4)OC3=O)cc2F)cn1 | 078 (oxford) | MIC | 4 µg/mL
CCCCCCCCCCCC[N+](C)(C)COCCC(C)CCCC(C)C | ATCC33592 | MIC | 11.9 µM
C=C1COC2[C@@H](C)C(=NC(C)=O)[C@H](C)C[C@@](C)(OC1)[C@H](O[C@@H]1O[C@H](C)C[C@H](N(C)C)[C@H]1O)[C@@H](C)C(=O)[C@@H](C)C(=O)O[C@H](CC)[C@@]2(C)O | 27660 (erythromycin-resistant) | MIC | 2 µg/mL
CNC(=O)CC1NC(=O)c2csc(n2)-c2ccc(-c3nc(C(=O)NCCC(=O)OC(C)(C)C)cs3)nc2-c2csc(n2)-c2csc(n2)C(C(O)c2ccccc2)NC(=O)CNC(=O)c2nc(sc2CSSc2nnc(C)s2)C(C(C)C)NC(=O)c2nc1sc2C | ATCC 33591 (methicillin-resistant) | MIC | 0.25 µg/mL
CCCNCCCNc1cc2c(cc1F)c(=O)c(C(=O)O)cn2C1CC1 | ATCC 5278 (methicillin-resistant) | MIC | 25 µg/mL
CCOC(=O)c1nc(-c2ccc(N3C[C@H](CNC(C)=O)OC3=O)cc2F)ns1 | UC6685 (methicillin-resistant) | MIC | >16 µg/mL
CC[C@H]1OC(=O)[C@H](C)C(=O)[C@H](C)[C@@H](O[C@@H]2O[C@H](C)C[C@H](N(C)C)[C@H]2O)[C@@]2(C)C[C@@H](C)C(=NC(C)=O)[C@H](C)C(OC/C(=C\C=C\c3ccc([N+](=O)[O-])cc3)CO2)[C@]1(C)O | 27660 (erythromycin-resistant) | MIC | 0.25 µg/mL
CC[C@H]1OC(=O)[C@H](C)C(=O)[C@H](C)[C@@H](O[C@@H]2O[C@H](C)C[C@H](N(C)C)[C@H]2O)[C@@]2(C)C[C@@H](C)C(=NC(C)=O)[C@H](C)[C@@H](OC/C(=N\Oc3ccc(-n4cccn4)nc3)CO2)[C@]1(C)O | 27660 (erythromycin-resistant) | MIC | 0.13 µg/mL
O=C1O[C@@H](COc2ccccn2)CN1c1ccc(C2=CCOCC2)c(F)c1 | 078 (oxford) | MIC | 0.5 µg/mL
O=C1O[C@@H](COc2ccon2)CN1c1ccc(-n2ccnc2)c(F)c1 | 122 (novobiocin-resistant) | MIC | 1 µg/mL
C[C@H]1COc2c(N3CCN(C)CC3)c(F)cc3c(=O)c(C(=O)O)cn1c23 | 46 isolates (methicillin-resistant) | MIC50 | 0.5 µg/mL
CC(C)OC(=S)NC[C@H]1CN(c2ccc3c(c2)-n2cccc2COC3)C(=O)O1 | ATCC 33591 (MRSA) | MIC | 32 µg/mL
CC[C@H]1OC(=O)[C@H](C)C(=O)[C@H](C)[C@@H](O[C@@H]2O[C@H](C)C[C@H](N(C)C)[C@H]2O)[C@@]2(C)C[C@@H](C)C(=NC(C)=O)[C@H](C)[C@@H](OC/C(=N\OCc3ccc4nc(N)sc4c3)CO2)[C@]1(C)O | 25923 (erythromycin-susceptible) | MIC | 0.13 µg/mL
COCCCNc1cc2c(cc1F)c(=O)c(C(=O)O)cn2C1CC1 | ATCC 6538P | MIC | >100 µg/mL
CNC(=O)CC1NC(=O)c2csc(n2)-c2ccc(-c3nc(C(=O)NCCCC(=O)O)cs3)nc2-c2csc(n2)-c2csc(n2)C(C(O)c2ccccc2)NC(=O)CNC(=O)c2nc(sc2CO)C(C(C)C)NC(=O)c2nc1sc2C | ATCC 33591 (methicillin-resistant) | MIC | 0.5 µg/mL
CC[C@H]1OC(=O)[C@@](C)(F)C(=O)[C@H](C)[C@@H](O[C@@H]2O[C@H](C)C[C@H](N(C)C)[C@H]2O)[C@@]2(C)C[C@@H](C)C(=NC(C)=O)[C@H](C)[C@@H](OC/C(=N\OCc3ccc(-n4cccn4)nc3)CO2)[C@]1(C)O | 25 strains | MIC50 | 0.125 µg/mL
CCCCCCCCCCCC[N+](C)(C)COCCCCCCC | ATCC33592 | MBC | 2.64 µM
CO/N=C1\CN(c2nc3c(cc2F)c(=O)c(C(=O)O)cn3C2CC2)CC1CN | KU2240 | MIC | 0.031 µg/mL
Cc1c(N)c(F)cc2c(=O)c(C(=O)O)cn(-c3cc(N)c(F)cc3F)c12 | SMITH | MIC | 0.004 µg/mL
CC(=O)NC[C@H]1CN(c2ccc(-c3cncs3)c(F)c2)C(=O)O1 | UC9213 (methicillin-susceptible) | MIC | 0.5 µg/mL
CC[C@H]1OC(=O)[C@H](C)C(=O)[C@H](C)[C@@H](O[C@@H]2O[C@H](C)C[C@H](N(C)C)[C@H]2O)[C@@]2(C)C[C@@H](C)C(=NC(C)=O)[C@H](C)[C@@H](OC/C(=N\OCCc3ccccc3)CO2)[C@]1(C)O | 33591 (erythromycin methicillin-resistant) | MIC | >64 µg/mL
CCCCCCCCCCCCOC[N+](C)(C)CCCCCCCC | ATCC 6538 | MIC | 1.28 µM
O=C(O)NC[C@H]1CC(c2cc(F)c(N3CCOCC3)c(F)c2)=NO1 | UC9213 | MIC | 4 µg/mL
O=C(CCl)NC[C@H]1CN(c2ccc3c(c2)-n2cccc2COC3)C(=O)O1 | ATCC 29213 (MSSA) | MIC | 2 µg/mL
O=C(O)NC[C@H]1CC(c2ccc(-n3cccc3)c(F)c2)=NO1 | UC9218 | MIC | 2 µg/mL
CC[C@H]1OC(=O)[C@H](C)C(=O)[C@H](C)[C@@H](O[C@@H]2O[C@H](C)C[C@H](N(C)C)[C@H]2O)[C@@]2(C)C[C@@H](C)C(=NC(=O)CN)[C@H](C)C(OC/C(=C\C=C\c3ccccc3)CO2)[C@]1(C)O | 33591 (erythromycin methicillin-resistant) | MIC | 32 µg/mL
Cc1c(NCCO)c(F)cc2c(=O)c(C(=O)O)cn(-c3cc(N)c(F)cc3F)c12 | 209P | MIC | 0.015 µg/mL

The last 5 rows once more:

{"smiles": "O=C(O)NC[C@H]1CC(c2cc(F)c(N3CCOCC3)c(F)c2)=NO1", "strain or isolate": "UC9213", "read-out": "MIC", "result": "4 µg/mL"}
{"smiles": "O=C(CCl)NC[C@H]1CN(c2ccc3c(c2)-n2cccc2COC3)C(=O)O1", "strain or isolate": "ATCC 29213 (MSSA)", "read-out": "MIC", "result": "2 µg/mL"}
{"smiles": "O=C(O)NC[C@H]1CC(c2ccc(-n3cccc3)c(F)c2)=NO1", "strain or isolate": "UC9218", "read-out": "MIC", "result": "2 µg/mL"}
{"smiles": "CC[C@H]1OC(=O)[C@H](C)C(=O)[C@H](C)[C@@H](O[C@@H]2O[C@H](C)C[C@H](N(C)C)[C@H]2O)[C@@]2(C)C[C@@H](C)C(=NC(=O)CN)[C@H](C)C(OC/C(=C\\C=C\\c3ccccc3)CO2)[C@]1(C)O", "strain or isolate": "33591 (erythromycin methicillin-resistant)", "read-out": "MIC", "result": "32 µg/mL"}
{"smiles": "Cc1c(NCCO)c(F)cc2c(=O)c(C(=O)O)cn(-c3cc(N)c(F)cc3F)c12", "strain or isolate": "209P", "read-out": "MIC", "result": "0.015 µg/mL"}